## Results of single-concentration screens

From ChEMBL document CHEMBL3988442, “University of Dundee, Small-Polar-MMV Screening Library” (2021).

Results are given as percent effect.
The record does not define 0% and 100%; most values in the screen are far below 50% and negative numbers occur (in some assays of this library far below -100).
Many other results are left out here, so strong results are more common than in the screen.

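Whole-cell growth test on Mycobacterium tuberculosis, read after 3 days in glucose-containing 7H9 medium; the read-out is not stated. Concentration: 500 µM. Direction is inferred from retests: higher values go with more growth inhibition. Of about 18,000 compounds tested this way, about 1,400 (7.9%) reached 50% or more in at least one test.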

SMILES	effect
COc1ccc(C2CCCN2C(C)=O)cc1OC (stereo not shown)	8.376
COCCCn1ccc(NC(=O)NC(C)(C)C)n1	13.94
O=S(=O)(NCC(O)COCc1ccco1)c1cccs1 (stereo not shown)	37.16
Cc1cc(C(F)F)nc2sc(C(N)=O)c(N)c12	-12.43
CCN(CC1CCOC1)C(=O)C(C)(C)C (stereo not shown)	4.519
CN(c1ccccc1C(N)=O)S(C)(=O)=O	4.696
CC1CN(C(=O)CCCNC(=O)c2ccco2)CCO1 (stereo not shown)	6.741
COCC(=O)N(C)C(C)Cc1ccc(OC)cc1 (stereo not shown)	7.396
CC(CNC(=O)c1ccc(C#N)cc1)N1CCCC1 (stereo not shown)	21.55
Cc1nn(C)c(C)c1S(=O)(=O)NC(CN)CC(C)C (stereo not shown)	-3.544
COCCn1cc(C(C)N)cn1 (stereo not shown)	0.3466
CCOC(C)(C)CNC(=O)NCc1ccncc1	-7.084
CN(CCC(O)c1ccccc1)C(=O)c1cc(Cl)c[nH]1 (stereo not shown)	89.89
O=C(NC1CCN(C(=O)C2CC2)CC1)c1cccs1	22.36
CC(CC(=O)NCc1ccccc1)n1cccn1 (stereo not shown)	9.922
CC(=O)c1ccc(NCC(=O)NC(C)C(C)C)cc1 (stereo not shown)	58.2
COc1ccccc1-c1noc(C(C)N)n1 (stereo not shown)	10.14
CSCC(CCO)Nc1nnnn1-c1ccc(C)cc1 (stereo not shown)	38.12
CSc1ccccc1C(=O)NCc1n[nH]c(C)n1	14.32
Clc1ccc2oc(N3CCNCC3)nc2c1	30.6
FC(F)COCCn1nnc(-c2ccsc2)n1	80.77
O=C(Cn1ccc(C(F)(F)F)n1)NCc1ccco1	53.4
CCN1CC(C(=O)N2CCc3ccccc3C2)CC1=O (stereo not shown)	12.39
Cc1nc(CCN2CCc3c(c(CO)nn3C)C2)cs1	-8.188
CCOC(=O)C(C)n1cnc2c1c(=O)n(C)c(=O)n2C (stereo not shown)	2.287
CN(C)C(=O)c1cc2ccccc2cc1O	25.99
CCc1ccc(CN(C)C(=O)c2cccc(N)n2)nc1	23.66
CS(=O)(=O)c1cccc(Cl)c1C(N)=O	4.572
NC(=O)CCN1CCCC1	-10.05
Cn1c(=O)c2c(nc(Cl)n2CCCC#N)n(C)c1=O	6.581
Cc1nnnn1CCC(=O)NC(C)Cn1cccn1 (stereo not shown)	-7.911
N#CCOc1ccc(NC(=O)c2ccncc2)cc1	32
NCc1cnn(-c2ccc(Br)cc2)c1	76.3
CC(C)Oc1ccccc1CN(C)CC(N)=O	11.91
O=C(c1cn[nH]c1)N1CCC(O)(CN2CCCC2)CC1	4.528
Cn1cc(C(=O)NCc2cccc(F)c2)ccc1=O	-3.376
NCCC(=O)Nc1ccccc1	2.015
CC1CCCCN1CC(N)=O (stereo not shown)	-0.8524
Oc1ccc(CNc2cccc(-c3nnc[nH]3)c2)cc1	31.38
COc1cccc(C(=O)NC2CCNCC2)c1	-2.507
Cc1nnc(SCCCNC(=O)c2cc(Cl)c[nH]2)s1	59.73
COCCSC(C(N)=O)c1ccccc1 (stereo not shown)	13.73
COc1cccc(S(=O)(=O)CCN2CCCC2CO)c1 (stereo not shown)	-1.885
COCCN(CCOC)CCOc1cccc(C#N)c1	29.7
CCN1CCN(S(=O)(=O)c2cc(C)ccc2OC)CC1	24.73
OC[C@H]1CCCCN1CC(O)COCc1ccco1 (stereo partly shown)	6.282
Cc1ccc(CCNC(=O)CSCCN2CCCC2)o1	53.81
FC(F)(F)c1ccc(OC2CCNCC2)nc1	71.06
CCCS(=O)(=O)CC(=O)NC1CCN(CC(N)=O)CC1	12.85
O=C(Nc1cnc(O)nc1O)c1ccccc1Br	26.27
COCCN1CCCN(C(=O)C(C)(C)C)CC1=O	0.1134
CCOC(=O)c1cnc2c(C#N)c(C)nn2c1N	-11.6
CC(C)NC(=O)Cn1c(S(C)(=O)=O)nc2ccccc21	-7.342
CC(CS(C)(=O)=O)NC(=O)c1ccc(C#N)cc1 (stereo not shown)	2.907
COc1ccc(Cn2cnc(N)n2)cc1	10.93
CN(CC(=O)N1CCCC1)S(=O)(=O)c1ccc(Cl)cc1	49.57
CCOC(=O)NCCC(=O)Nc1cccnc1	4.586
CCCn1nnc(NC(=O)COc2ccc(Cl)cc2)n1	100
CN1CCC(NC(=O)C2CC2)CC1	-2.734
CCCNC(=O)c1ccc2c(c1)NC(=O)C(C)S2 (stereo not shown)	60.43
CNc1cc(CN(C)Cc2ccco2)ccn1	23.83
CCC(NC(=O)c1ccc(O)cc1F)[C@H]1C[C@H](O)C1 (stereo partly shown)	11.23
CCOc1ccccc1C(=O)N1CCCN(C)CC1	19.95
CCN(CCN1CCCCCC1)C(=O)c1cnc[nH]1	-11.9
CCn1c(CN(C)CCCO)nnc1[C@H]1C[C@@H](N)C1	0.2832
CC1CCCCN1CCS(=O)(=O)CCC(N)=O (stereo not shown)	36.29
CN(C)c1cc(CNc2ccc(C#N)cn2)ccn1	60.27
CN(C)Cc1ccccc1C(=O)N[C@@H]1CCOC[C@H]1O	-2.874
O=C(c1cc(C2CC2)n[nH]1)N1CCCC(O)(CO)CC1 (stereo not shown)	-1.284
CC(C)(C)OC(=O)N1CCOC(CN)C1 (stereo not shown)	9.725
O=c1ccc(-c2noc(C3CCCC3)n2)c[nH]1	2.329
CN(C)C(=O)c1cc(-c2cccs2)on1	53.88
CN(C)c1cc(CNC(=O)c2ccncc2)ccn1	22.68
CC(N)c1ccc(NC(=O)c2ccncc2)cc1 (stereo not shown)	23.33
COC(=O)c1ccc(S(=O)(=O)N2CCOCC2)cc1	-12.08
CCC(N)C(=O)N1CCc2ccc(OC)cc2C1 (stereo not shown)	19.92
O=S1(=O)CCC(n2cnc(I)n2)C1 (stereo not shown)	1.101
NCCn1ccccc1=O	13.08
O=C(CNCC1CC1)Nc1ccc(F)cc1	60.19
CC(=O)c1sc(NCCc2ccccn2)nc1C	56.06
CCS(=O)(=O)c1ccc(CN)cc1F	8.32
COc1ccccc1-c1[nH][nH]c(=O)c1CCN	41.84
O=C(CN1CCN(CCO)CC1)NCC(F)(F)F	-4.26

The last 7 entries again:

SMILES,effect
O=S1(=O)CCC(n2cnc(I)n2)C1 (stereo not shown),1.101
NCCn1ccccc1=O,13.08
O=C(CNCC1CC1)Nc1ccc(F)cc1,60.19
CC(=O)c1sc(NCCc2ccccn2)nc1C,56.06
CCS(=O)(=O)c1ccc(CN)cc1F,8.32
COc1ccccc1-c1[nH][nH]c(=O)c1CCN,41.84
O=C(CN1CCN(CCO)CC1)NCC(F)(F)F,-4.26